Here are results for one molecule from PMC4657468, “Impaired uptake of conjugated bile acids and hepatitis b virus pres1-binding in na^+-taurocholate cotransporting polypeptide knockout mice” (Hepatology (Baltimore, Md.), 2015).

Molecules are shown by their SMILES.

The series can be described thus: 0.1% UDCA diet supplementation, total serum BA concentrations. Conditions: mean ± SEM, total BA assay. Format: in vivo, mouse.

With `C[C@H](CCC(=O)O)[C@H]1CC[C@H]2[C@@H]3[C@@H](O)C[C@@H]4C[C@H](O)CC[C@]4(C)[C@H]3CC[C@]12C` [UDCA, ursodeoxycholic acid], under “WT mice fed UDCA, n = 4”, the “Total serum BA concentrations after 0.1% UDCA supplementation” value was 3.4 ± 1.4 µmol/L. Besides, the “Total serum BA concentrations after 1 week of 0.1% UDCA supplementation” value (adult (8- to 10-week-old) Slc10a1−/− mice, n = 8, 0.1% UDCA in chow, 1 week) was determined as 2528 ± 792.7 µmol/L.
